Results of unrelated studies side by side (data: NIAID ChemDB).

All rows: growth or infection tests; agent: Mycobacterium tuberculosis

MIC50, MIC90 and the like: level of inhibition, or share of isolates inhibited.

SMILES,strain or isolate,cell line,read by,endpoint,tested at,result
CCCCCCCCCC1C/C(=N\OCc2ccccc2)c2c(O)cc(O)cc2O1,H37Rv,-,broth dilution,MIC,-,100 µg/mL
CCCCCc1nc2c(C)c3c4c(c2o1)[C@@H](C)CC[C@@H]4[C@@H](C)C[C@H]3C=C(C)C,-,-,-,MIC,-,12.5 µg/mL
Cc1ccc2nc(Oc3ccccc3)c(C3C(C#N)=C(N)Oc4c3c(=O)oc3ccc(C)cc43)cc2c1,H37Rv,-,-,inhibition,250 µg/mL,10%
CCC1CCC2(CC1)SC(C)C(=O)N2NC(=O)Cc1csc2nc(-c3ccccc3)cn12.O.O,H37Rv,VERO,-,inhibition,6.25 µg/mL,99%
NC(=S)Nc1cccc2ccccc12,A67,-,-,MIC,-,250 µM
COC(=O)C1C(OC(C)=O)C(C)C(O)C(C)(O)/C=C(\C)C2=C3C(=C(C)C(=O)c4c(O)c(c(C)c(OC(C)=O)c43)NC(=O)/C(C)=C/C=C\[C@](C)(O)C(O)[C@@H](C)C1O)OCO2,RMP-R,-,-,MIC,-,>12.5 µg/mL
CCOC(=O)CSc1nnc(-c2ccco2)n1CC,H37Rv,-,-,EC50,-,>6.25 µg/mL
COc1cc2c(cc1O)CCN[C@]21CS[C@@H]2c3c(C(C)=O)c(C)c4c(c3C(COC1=O)N1C2[C@H]2c3c(cc(O)c(OC)c3O)C[C@@H]([C@@H]1C#N)N2C)OCC4,-,-,-,MIC,-,0.13 µg/mL
Cc1ccc(Oc2nc3ccccc3cc2C2C(C#N)=C(N)Oc3c2c(=O)oc2ccc(C)cc32)cc1,H37Rv,-,-,inhibition,250 µg/mL,45%
O=C1CCc2ccccc2-c2ccccc21,H37Rv,-,BACTEC,inhibition,12.5 µg/mL,16%
CCn1c(SCC(=O)N/N=C/c2ccc([N+](=O)[O-])cc2)nnc1-c1ccco1,H37Rv,-,-,inhibition,6.25 µg/mL,12%
O=C1c2ccccc2C(O)(C(=O)O)C1(O)CC=C(Cl)Cl,H37Rv,-,BACTEC,inhibition,12.5 µg/mL,13%
Cc1ccc2nc(Oc3ccccc3)c(C3C(C#N)=C(N)Oc4c3c(=O)oc3ccccc43)cc2c1,H37Rv,-,-,inhibition,250 µg/mL,52%
O=c1ccc2c(-c3ccccc3O)c3ccc(O)cc3oc-2c1,H37Rv,-,BACTEC,inhibition,12.5 µg/mL,21%
CC1=CC[C@]2(C)CC(=O)[C@@]3(C)[C@H](C(C(C)C)=C[C@@H]3O)[C@H]2CC1,-,-,-,MIC,-,6.25 µg/mL
NNC(=O)c1ccncc1,3426,-,resazurin,MIC,-,20 µg/mL
CO[C@H]1/C=C/O[C@@]2(C)Oc3c(C)c(O)c4c(O)c(c(/C=N/N5CCN(C/C=C/c6ccccc6)CC5)c(O)c4c3C2=O)NC(=O)/C(C)=C\C=C\[C@H](C)[C@H](O)[C@@H](C)[C@@H](O)[C@@H](C)[C@H](OC(C)=O)[C@@H]1C,H37Rv,-,-,MIC,-,0.2 µg/mL
O=S(=O)(NCCO)c1ccc(-c2nnn(Cc3ccc(Cl)cc3)n2)cc1,H37Rv,-,resazurin,MIC,-,<0.1 µM
CC1CCN(C(=S)S)CC1.CC1CCNCC1,H37Rv,-,BACTEC,MIC bound,-,≤12.5 µg/mL
NC(=O)CNS(=O)(=O)c1ccc(-c2cn(Cc3ccc(F)cc3)nn2)cc1,H37Rv,-,resazurin,MIC,-,<0.1 µM
COc1cccc2ccc(N3CCC(c4nc(-c5ccc(C(F)(F)F)cc5)no4)CC3)nc12,H37Rv,-,resazurin,MIC,-,50–100 µM
COc1ccc2nc(Oc3ccccc3)c(C3C(C#N)=C(N)Oc4c3c(=O)oc3ccc(C)cc43)cc2c1,H37Rv,-,-,inhibition,250 µg/mL,45%
COc1cc([N+](=O)[O-])c(S(=O)(=O)O)cc1-n1nc(C(=O)Nc2ccccc2)n[n+]1-c1cc(S(=O)(=O)O)c([N+](=O)[O-])cc1OC,H37Rv,-,BACTEC,MIC bound,-,>12.5 µg/mL
c1cncc(-c2noc(C3CCN(c4ccc5cc(-c6ccncc6)ccc5n4)CC3)n2)c1,H37Rv,-,resazurin,MIC,-,<7.8 µM
CC1CCC(=NNC(=O)Cc2csc3nc(-c4ccc(Cl)cc4)cn23)CC1,H37Rv,-,-,MIC,-,>6.25 µg/mL
COCCNc1nc2c(c(=O)n(Cc3ccc(Cl)c(Cl)c3)c(=O)n2C)n1C,H37Rv,-,-,EC50,-,17 µM
C=C(C)[C@H]1[C@@H]2C[C@H](C)[C@H]3CC[C@H](C)[C@H]4C(=O)[C@]1(O)[C@@](C)(O)C(=O)[C@]342,-,-,-,MIC,-,6.25 µg/mL
Cc1coc(NS(=O)(=O)c2ccc(N=Nc3c(N)n(C)c(=O)n(C)c3=O)cc2)c1C,H37Rv,-,BACTEC,inhibition,12.5 µg/mL,0%
COc1cccc2ccc(N3CCC(c4nc(-c5cccc(C(F)(F)F)c5)no4)CC3)nc12,H37Rv,-,resazurin,MIC,-,15.6–31.5 µM
COc1ccc2nc(Oc3ccc(Cl)cc3)c(C3C(C#N)=C(N)Oc4c3c(=O)oc3ccc(C)cc43)cc2c1,H37Rv,-,-,inhibition,250 µg/mL,27%
NC(=S)Nc1cccc(N)c1,A67,-,-,MIC,-,500 µM
CO[C@H]1/C=C/O[C@@]2(C)Oc3c(C)c(O)c4c(O)c(c(/C=N/N5CCN(C)CC5)c(O)c4c3C2=O)NC(=O)/C(C)=C\C=C\[C@H](C)[C@H](O)[C@@H](C)[C@@H](O)[C@@H](C)[C@H](OC(C)=O)[C@@H]1C,H37Rv,-,-,MIC,-,0.5 µg/mL
CCn1c(SCC(=O)N/N=C/c2cccc([N+](=O)[O-])c2)nnc1-c1ccco1,H37Rv,-,-,EC50,-,>6.25 µg/mL
CC1NC(=O)C(C(C)C)NC(=O)C2=CN(Cc3ccccc3)C=CC2NC(=O)C(C)NC(=O)C(C(C)C)NC(=O)C2=CN(Cc3ccccc3)C=CC2NC1=O,H37Rv,-,BACTEC,inhibition,12.5 µg/mL,11%
c1ccc(Oc2ccc(-c3nnc(-c4cccs4)o3)cc2)cc1,H37Rv,-,resazurin,MIC,-,3.65 µg/mL
Cc1cc(-c2cc3c(cc2F)c(=O)c(C(=O)O)cn3C2CC2)cc(C)n1,1773-6,-,-,MIC,-,4 µg/mL
CC1CCC2(CC1)SCC(=O)N2NC(=O)Cc1csc2nc(-c3ccccc3)cn12.O,H37Rv,-,-,inhibition,6.25 µg/mL,98%
C=CCOc1cc(O)cc(O)c1C(=O)C(C)CC,H37Rv,-,broth dilution,MIC,-,100 µg/mL
O=C(O)c1ccc(NCc2nc3ccccc3[nH]2)cc1,H37Rv,-,BACTEC,MIC bound,-,>6.25 µg/mL
CN[C@@H]1[C@H](O[C@H]2[C@H](O[C@H]3[C@H](O)[C@@H](O)[C@H](N=C(N)N)[C@@H](O)[C@@H]3N=C(N)N)O[C@@H](C)[C@]2(O)C=O)O[C@@H](CO)[C@H](O)[C@H]1O,3426,-,resazurin,MIC,-,1000 µg/mL
N[C@H](C(=O)O)[C@H]1ON=C(Cl)[C@@H]1O,RMP-R,-,-,MIC,-,12.5 µg/mL
O=C(NNC(=S)Nc1ccccc1C(F)(F)F)c1ccncc1,INH resistant,-,-,MIC,-,0.58 µM
Cc1cc(Nc2cccc(Cl)c2)nc(-n2nc(C)cc2C)n1,H37Rv,-,-,EC50,-,24 µM
NC(=S)Nc1ccc(Br)cc1,A67,-,-,MIC,-,250 µM
CO[C@H]1/C=C/O[C@@]2(C)Oc3c(C)c(O)c4c(O)c(c(C=Nc5ccccc5)c(O)c4c3C2=O)NC(=O)/C(C)=C\C=C\[C@H](C)[C@H](O)[C@@H](C)[C@@H](O)[C@@H](C)[C@H](O)[C@@H]1C,H37Rv,-,-,MIC,-,1 µg/mL
O=C(Cc1csc2nc(-c3ccc(Cl)cc3)cn12)NN1C(=O)CSC12CCCCC2,H37Rv,-,-,EC50,-,>6.25 µg/mL
CC(=O)C[C@@H]1C[C@H]2[C@H]([C@@H]3c4[nH]c5ccccc5c4CCN13)[C@H](O)C13CC/C=C\CCCCN1CC21CC/C=C\CCCNC13,H37Rv,-,-,MIC,-,1.5 µg/mL
Nc1ncnc2nc(SCC(=O)Nc3cccc(Cl)c3)[nH]c12,H37Rv,-,-,EC50,-,9 µM
COc1cccc2ccc(N3CCC(c4nc(-c5ccc(N6CCNCC6)nc5)no4)CC3)nc12,H37Rv,-,resazurin,MIC,-,15.6–31.5 µM
CCN(CC)C(=O)COc1cc2c(O)c3c(O)c(C)c4c(c13)C(=O)[C@@](C)(O/C=C/[C@H](OC)[C@@H](C)[C@@H](O)[C@H](C)[C@H](O)[C@H](C)[C@@H](O)[C@@H](C)/C=C/C=C(/C)C(=O)N2)O4,H37Rv,-,-,MIC,-,0.5 µg/mL
O=C(N/N=C/c1cccc2ccccc12)c1ccc(Oc2ccccc2)cc1,H37Rv,-,resazurin,MIC,-,0.98 µg/mL
NC(=O)CNS(=O)(=O)c1ccc(-c2nnn(Cc3ccc(F)cc3)n2)cc1Cl,H37Rv,-,resazurin,MIC,-,<0.1 µM
OC[C@H]1O[C@H](CO)[C@@H](O)[C@@H]1O,H37Rv,-,BACTEC,MIC bound,-,>12.5 µg/mL
Fc1ccc(-c2nc3ccc(Cl)cn3c2NCC2CCCO2)cc1,H37Rv,-,-,EC50,-,13 µM
COC(=O)[C@]1(C)CCC[C@]2(C)c3ccc(C(C)C)cc3C(=O)C[C@@H]12,H37Rv,-,BACTEC,inhibition,6.25 µg/mL,0%
COc1ccc(NC(=S)NNC(=O)c2ccncc2)cc1,INH resistant,-,-,MIC,-,10.31 µM
COc1ccccc1C(=O)N(C)c1ccc(Cl)c(C(=O)OC(C)C)c1,H37Rv,-,BACTEC,MIC bound,-,>12.5 µg/mL
CCn1cc(C(=O)O)c(=O)c2cc(F)c(N3CCN(C)CC3)cc21,9 isolates (RMP INH-S),-,-,MIC50,-,8 µg/mL
N#Cc1ccc(Cn2nnc(-c3ccc(S(=O)(=O)NCCO)cc3)n2)cc1,H37Rv,-,resazurin,MIC,-,<0.1 µM
CC1(C)OC2C(=O)C3COC(O3)C2O1,H37Rv,-,BACTEC,inhibition,12.5 µg/mL,0%
C[C@H]1[C@H](C)CC[C@]2(C(=O)O)CC[C@]3(C)C(CC[C@@H]4[C@@]5(C)C[C@H](O)CC(C)(C)[C@@H]5CC[C@]43C)[C@H]12,RIF-R (ATCC 35838),-,resazurin,MIC,-,25 µg/mL
CC1CCC2(CC1)SC(C)C(=O)N2NC(=O)Cc1csc2nc(-c3ccccc3)cn12,H37Rv,VERO,-,MIC,-,3.13 µg/mL
Cc1cc(=O)c2c(O)cc3c(c2o1)CC=C(COC1OC(COC2OC(CO)C(O)C(O)C2O)C(O)C(O)C1O)CO3,H37Rv,-,BACTEC,inhibition,12.5 µg/mL,2%
NC(=O)c1cnc(Cl)cn1,DHMH 4319,-,-,MIC,-,8 µg/mL
Cc1cc(Br)ccc1NC(=S)NNC(=O)c1ccncc1,INH resistant,-,-,MIC,-,1.06 µM
NC(=S)Nc1ccc(N)cc1,A67,-,-,MIC,-,500 µM
C/C=C/C=C1\C=Cc2c(C(=O)OC)coc(=O)c21,H37Rv,-,BACTEC,inhibition,12.5 µg/mL,10%
CCn1c(SCC(=O)N/N=C/C=C/c2ccc([N+](=O)[O-])o2)nnc1-c1ccco1,H37Rv,-,-,EC50,-,>6.25 µg/mL
CC1CCC/C(=N\NC(=O)Cc2csc3nc(-c4ccc(Cl)cc4)cn23)C1,H37Rv,-,-,inhibition,6.25 µg/mL,99%
Cc1ccc(-n2c3nc(=O)n(C)c(=O)c-3nc3ccccc32)cc1C,H37Rv,-,BACTEC,inhibition,12.5 µg/mL,62%
O=C(NNC(=S)Nc1ccc(Br)cc1)c1ccncc1,INH resistant,-,-,MIC,-,2.22 µM
O=C(NNS(=O)(=O)c1ccccc1)c1ccco1,H37Rv,-,BACTEC,inhibition,12.5 µg/mL,-2%
Cc1ccc(NC(=S)NNC(=O)c2ccncc2)c(C)c1,WT,-,-,MIC,-,2.59 µM
O=C1c2c(O)ccc(O)c2C(=O)c2c(NCCNC(=O)[C@@H](O)[C@H](O)[C@@H](O)[C@@H](O)CO)ccc(NCCNC(=O)[C@@H](O)[C@H](O)[C@@H](O)[C@@H](O)CO)c21,H37Rv,-,-,MIC bound,-,>6.25 µg/mL
CO/N=C/c1c2c(O)c3c(O)c(C)c4c(c3c1O)C(=O)[C@@](C)(O/C=C/[C@H](OC)[C@@H](C)[C@@H](O)[C@H](C)[C@H](O)[C@H](C)[C@@H](O)[C@@H](C)/C=C/C=C(/C)C(=O)N2)O4,H37Rv,-,-,MIC,-,0.2 µg/mL
Cc1cc(C(=O)NN)no1,H37Rv,-,BACTEC,inhibition,12.5 µg/mL,5%
COc1ccc2nc(Oc3ccccc3)c(C3C(C#N)=C(N)Oc4c3c(=O)oc3ccccc43)cc2c1,H37Rv,-,-,inhibition,250 µg/mL,11%

The first 9 rows once more:

SMILES | strain or isolate | cell line | read by | endpoint | tested at | result
CCCCCCCCCC1C/C(=N\OCc2ccccc2)c2c(O)cc(O)cc2O1 | H37Rv | - | broth dilution | MIC | - | 100 µg/mL
CCCCCc1nc2c(C)c3c4c(c2o1)[C@@H](C)CC[C@@H]4[C@@H](C)C[C@H]3C=C(C)C | - | - | - | MIC | - | 12.5 µg/mL
Cc1ccc2nc(Oc3ccccc3)c(C3C(C#N)=C(N)Oc4c3c(=O)oc3ccc(C)cc43)cc2c1 | H37Rv | - | - | inhibition | 250 µg/mL | 10%
CCC1CCC2(CC1)SC(C)C(=O)N2NC(=O)Cc1csc2nc(-c3ccccc3)cn12.O.O | H37Rv | VERO | - | inhibition | 6.25 µg/mL | 99%
NC(=S)Nc1cccc2ccccc12 | A67 | - | - | MIC | - | 250 µM
COC(=O)C1C(OC(C)=O)C(C)C(O)C(C)(O)/C=C(\C)C2=C3C(=C(C)C(=O)c4c(O)c(c(C)c(OC(C)=O)c43)NC(=O)/C(C)=C/C=C\[C@](C)(O)C(O)[C@@H](C)C1O)OCO2 | RMP-R | - | - | MIC | - | >12.5 µg/mL
CCOC(=O)CSc1nnc(-c2ccco2)n1CC | H37Rv | - | - | EC50 | - | >6.25 µg/mL
COc1cc2c(cc1O)CCN[C@]21CS[C@@H]2c3c(C(C)=O)c(C)c4c(c3C(COC1=O)N1C2[C@H]2c3c(cc(O)c(OC)c3O)C[C@@H]([C@@H]1C#N)N2C)OCC4 | - | - | - | MIC | - | 0.13 µg/mL
Cc1ccc(Oc2nc3ccccc3cc2C2C(C#N)=C(N)Oc3c2c(=O)oc2ccc(C)cc32)cc1 | H37Rv | - | - | inhibition | 250 µg/mL | 45%

An empty or dashed field is not shown. MIC bound: limit read from a one-dose screen. ECn: concentration that inhibits the pathogen or its effect by n%. Conditions beyond the fields shown may differ between rows. Percent inhibition refers to the dose given; in toxicity tests it is the harm to the cells. a–b is a range or a potency band.